Results as given in article PMC8228141, “Antiprotozoal Nor-Triterpene Alkaloids from Buxus sempervirens L” (Antibiotics, 2021).

Columns and labels:
[1] = system: Plasmodium falciparum (Pf) (intraerythrocytic forms, NF54 strain); assay: In vitro antiplasmodial activity; format: cell-based; conditions: cytotoxicity L6 vs Pf
Description: (§1) After isolation, all alkaloids were tested in vitro for antiplasmodial and antitrypanosomal activity against Plasmodium falciparum (Pf) and Trypanosoma brucei rhodesiense (Tbr). Furthermore, to assess their selectivity against the parasites, cytotoxicity against L6 rat skeletal myoblasts, as mammalian control cells, was tested (Table 4).
(§2) In vitro assays for the bioactivity of the isolated Buxus-alkaloids against Tbr (bloodstream trypomastigotes, STIB 900 strain), Trypanosoma cruzi (Tc) (amastigotes, Tulahuen C4 strain), Leishmania donovani (Ldo) (amastigotes, MHOM-ET-67/L82 strain) and Pf (intraerythrocytic forms, NF54 strain), and cytotoxicity tests against mammalian cells (L6-cell line from rat-skeletal myoblasts), were performed at the Swiss Tropical and Public Health Institute (Swiss TPH, Basel, Switzerland) according to established standard protocols.

[2] = system: Trypanosoma brucei rhodesiense (Tbr) (bloodstream trypomastigotes, STIB 900 strain); assay: In vitro antitrypanosomal activity; format: cell-based; conditions: cytotoxicity L6 vs Tbr
Description: as §1
as §2, with “protocols. […] Such a pattern of activity was also observed in other studies.” for “protocols.”

Row | Compound | SI Pf (selectivity index) [1] | SI Tbr (selectivity index) [2]
1 | CN[C@@H](C)[C@H]1[C@H](O)C[C@@]2(C)[C@@H]3C=C[C@H]4C(C)(C)[C@@H](N(C)C)CC[C@@]45C[C@@]35CC[C@]12C [Compound 2, Cyclovirobuxeine-B] | 14 | 25
2 | CC(C1C(O)CC2(C)C3C=CC4C(C)(CO)C(N(C)C)CCC45CC35CCC12C)N(C)C (stereo not shown) [Compound 5, Cyclomicrophylline-A] | 56 | 42
3 | CC(C1C(OC(=O)c2ccccc2)CC2(C)C3C=CC4C(C)(CO)C(N(C)C)CCC45CC35CCC12C)N(C)C (stereo not shown) [Compound 6, Cyclomicrophyllidine-A] | 23 | 14
4 | CC(=O)OC[C@]1(C)[C@@H](NC(=O)c2ccccc2)CC[C@]23C[C@]24C(=O)C[C@]2(C)[C@@H]([C@H](C)N(C)C)CC[C@@]2(C)[C@@H]4CC[C@@H]13 [Compound 9, N-benzoyl-O-acetyl-cycloxo-buxoline-F] | 19 | 30
5 | C[C@@H]([C@H]1[C@H](O)C[C@@]2(C)[C@@H]3CC[C@H]4C(C)(C)C(=O)C=C[C@@]45C[C@@]35CC[C@]12C)N(C)C [Compound 12, Nb-dimethylcycloxobuxoviricine] | 14 | 8
6 | C=C1[C@@H](N(C)C)CC[C@]23C[C@]24CC[C@]2(C)[C@@H](C(C)=O)[C@H](O)C[C@@]2(C)[C@@H]4CC[C@@H]13 [Compound 18, Cyclomicrobuxine] | 10 | 2
7 | C[C@@H]([C@H]1CC[C@H]2[C@@H]3CC=C4C[C@@H](O)CC[C@]4(C)[C@H]3CC[C@]12C)N(C)C [Compound 19, Irehine] | 10 | 6
8 | CC(=O)[C@H]1[C@H](O)C[C@@]2(C)[C@@H]3CC[C@@H]4C(=CC3=CC[C@]12C)CC[C@H](N(C)C)C4(C)C [Compound 20, 16-α-hydroxybuxaminone] | 28 | 9
9 | CC(=O)N[C@@H](C)[C@H]1CC[C@@]2(C)[C@@H]3CC[C@@H]4C(=CC3=CC[C@]12C)CC[C@H](N(C)C)C4(C)C [Compound 21, N20-acetylbuxamine-E] | 18 | 1
10 | CC(=O)O[C@@H]1C[C@@]2(C)[C@@H]3CC[C@@H]4C(=CC3=CC[C@]2(C)[C@H]1[C@H](C)NC(=O)c1ccccc1)CC[C@H](N(C)C)C4(C)C [Compound 22, N-benzoyl-O-acetylbuxodienine-E] | 3 | 3
11 | O-tigloylcyclovirobuxeine-B [Compound 1] | 18 | 6
